Measured values reported in PubChem BioAssay AID504594 (Broad Institute, 2011).
The entries are a selection whose mix differs from that of the whole data set. Calls of active or inactive are those of the source.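 How the source made its calls: active means growth inhibition of at least 75% in every replicate, which also brings the mean inhibition to 75% or more; inconclusive means mean inhibition 75% or more but some replicate under 75%; inactive means the rest.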

Assay: reduced viability of yeast carrying PfHsp90 – S. cerevisiae, BacTiter-Glo luminescence, antimalarial PfHsp90 inhibitor project, primary screen (AID 504594);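 further: 0% = DMSO neutral control wells and 100% = 20 µM radicicol control wells; higher value means stronger growth inhibition because the sign is flipped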
Details: S. cerevisiae expressing PfHsp90, BacTiter-Glo growth, 48 h; at 9.4 µM; hits give high values

**Q.** With `CN(C(=O)Cc1ccc(Cl)c(Cl)c1)[C@@H]1CCCC[C@H]1N1CCCC1` as the compound, how does the growth inhibition read?
**A.** Its growth inhibition is inactive: 6.66%.
